A mixed list of measured activities; the numbers were collected in NIAID ChemDB.

Shared fields: growth or infection tests; agent: HIV-1; cell line: MT-4; endpoint: EC50

ECn is the concentration giving n% inhibition of infection, replication or growth. a–b is a range or a potency band. Conditions beyond the fields shown may differ between rows. An empty or dashed field is not shown.

| smiles | strain or isolate | mutations | read by | result |
|---|---|---|---|---|
| COCCOCCOCCO[C@H](C)[C@@H](CN[C@]12CC[C@@H](C3(C)CC3)[C@@H]1[C@H]1CC[C@@H]3[C@@]4(C)CC[C@H](OC(=O)[C@H]5C[C@@H](C(=O)O)C5(C)C)C(C)(C)[C@@H]4CC[C@@]3(C)[C@]1(C)CC2)N1CCS(=O)(=O)CC1 | NL4-3 | V7A | p24 / ELISA | <0.05 µM |
| Cc1cccc(Nc2ccccc2C(=O)Nc2ccc(C(=O)/C=C/c3ccc(N(C)C)cc3)cc2)c1C | IIIB | - | MTT / absorbance | >2.06 µM |
| CC(=O)N(CCCN(C)C)c1nc2ccc(S(=O)(=O)N(CC(C)C)C[C@@H](O)[C@H](Cc3ccccc3)NC(=O)O[C@H]3CO[C@H]4OCC[C@H]43)cc2s1 | LAI | - | cytopathic effect / MTT | <0.05 µM |
| N#Cc1cc(Cl)cc(Oc2cc(Cl)cc(OCc3[nH]nc4ccccc34)c2)c1 | - | - | p24 | <20 µM |
| Cc1cccc(Nc2ccccc2C(=O)Nc2ccc(C(=O)/C=C/c3ccc(Br)cc3)cc2)c1C | IIIB | - | MTT / absorbance | >12.68 µM |
| N#Cc1cc(Cl)cc(Oc2c(Br)ccc(CC(=O)Nc3ccc(S(N)(=O)=O)cc3Cl)c2F)c1 | - | Y181I/M230L | - | 0.012 µM |
| Cc1cc(Cl)cc(C(=O)c2c(C(C)C)c(=O)[nH]c(=O)n2Cc2ccnc(C#N)c2)c1 | - | - | cytopathic effect / MTT | 0.0029 µg/mL |
| CC(C)CN(C[C@@H](O)[C@H](Cc1ccccc1)NC(=O)OCc1cncs1)S(=O)(=O)c1ccc2nc(NC(=O)CN3CCN(C)CC3)sc2c1 | R13025 | - | cytopathic effect / MTT | 0.0054 µM |
| Cc1cn([C@H]2C=C[C@@H](CO)O2)c(=O)[nH]c1=O | XM-M184V | RT-M184V | p24 | <0.3 µM |
| COc1cc2c(cc1OC)C1=NOC(c3cccc(N)c3)C1C2 | IIIB | - | MTT | >13.83 µM |
| Cc1cc(Cn2c(C(=O)c3cc(F)cc(F)c3)c(C(C)C)c(=O)[nH]c2=O)cc(C)n1 | - | - | cytopathic effect / MTT | 0.0044 µg/mL |
| Cc1cccc(Nc2ccccc2C(=O)Nc2ccc(C(=O)/C=C/c3ccccc3)cc2)c1C | IIIB | - | MTT / absorbance | >125 µM |
| CNc1ccc2c(COc3ccc(Cl)c(Oc4cc(Cl)cc(C#N)c4)c3)[nH]nc2n1 | - | - | p24 | <20 µM |
| CC(C)CN(C[C@@H](O)[C@H](Cc1ccccc1)NC(=O)OCc1cncs1)S(=O)(=O)c1ccc2nc(N(C)C(=O)CN3CCOCC3)sc2c1 | IIIB | - | cytopathic effect / MTT | 0.0091 µM |
| N#Cc1cnn2c1n[n+]([O-])c1cc([N+](=O)[O-])ccc12 | IIIB | - | cytopathic effect / MTT | >1 µM |
| CC1([C@@H]2CC[C@]3(NC[C@@H](CF)N4CCS(=O)(=O)CC4)CC[C@]4(C)[C@H](CC[C@@H]5[C@@]6(C)CC[C@H](OC(=O)[C@H]7C[C@@H](C(=O)O)C7(C)C)C(C)(C)[C@@H]6CC[C@]54C)[C@@H]23)CC1 | NL4-3 | - | p24 / ELISA | 0.01001–0.05 µM |
| CCOC(=O)c1cnn2c1nnc1ccccc12 | IIIB | - | cytopathic effect / MTT | >200 µM |
| CCc1c(C(=O)c2cc(F)cc(F)c2)n(Cc2cc(C)nc(C)c2)c(=O)[nH]c1=O | - | - | cytopathic effect / MTT | 0.0151 µg/mL |
| COc1cc2c(cc1OC)C1=NOC(c3cc(OC)c(OC)c(OC)c3)C1C2 | IIIB | - | MTT | >13.47 µM |
| CN[C@@H]1[C@H](O[C@H]2[C@H](O[C@H]3[C@H](O)[C@@H](O)[C@H](N=C(N)N)[C@@H](O)[C@@H]3N=C(N)N)O[C@@H](C)[C@]2(O)C=O)O[C@@H](CO)[C@H](O)[C@H]1O | IIIB | - | cytopathic effect / MTT | >200 µM |
| CC(C)CN(C[C@@H](O)[C@H](Cc1ccccc1)NC(=O)OCc1cncs1)S(=O)(=O)c1ccc2nc(N(C)C(=O)CN(C)CCCN3CCCC3)sc2c1 | R13080 | - | cytopathic effect / MTT | 3.16 µM |
| Cc1cccc(Nc2ccccc2C(=O)Nc2ccc(-c3cc(-c4ccccc4)nc(=S)[nH]3)cc2)c1C | IIIB | - | MTT / absorbance | >13.9 µM |
| [O-][n+]1nc2c(Br)cnn2c2ccccc21 | IIIB | - | cytopathic effect / MTT | >200 µM |
| CC(C)C1=C2C(CC1=O)[C@@H](C(=O)NCCN(CCN(C)C)Cc1ccc(Cl)cc1)C[C@@H]1[C@@H]2CCC2C3C(CC[C@]21C)C(C)(C)C(C1=CC[C@H](C(=O)O)CC1)=C[C@H]3C | NL4-3 | - | MTS / propidium iodide | 2.51 µM |
| COc1cc2c(cc1OC)C1=NOC(c3ccccc3Cl)C1C2 | IIIB | - | MTT | >67.97 µM |
| COc1ccc(Cn2c(C(=O)c3cc(C)cc(C)c3)c(C(C)C)c(=O)[nH]c2=O)cc1 | - | - | cytopathic effect / MTT | 0.003 µg/mL |
| Nc1nc(=O)n([C@H]2C=C[C@@H](CO)O2)cc1F | XM-T69SSS | RT-T69SSS L210W T215Y | p24 | <8.2 µM |
| CC(=O)N(CCN1CCCC1)c1nc2ccc(S(=O)(=O)N(CC(C)C)C[C@@H](O)[C@H](Cc3ccccc3)NC(=O)O[C@H]3CO[C@H]4OCC[C@H]43)cc2s1 | IIIB | - | cytopathic effect / MTT | 0.0174 µM |
| C[C@@H](CN[C@]12CC[C@@H](C3(C)CC3)[C@@H]1[C@H]1CC[C@@H]3[C@@]4(C)CC[C@H](OC(=O)[C@H]5C[C@@H](C(=O)O)C5(C)C)C(C)(C)[C@@H]4CC[C@@]3(C)[C@]1(C)CC2)N1CCS(=O)(=O)CC1 | NL4-3 | V7A | p24 / ELISA | <0.05 µM |
| N#Cc1cc(Cl)cc(Oc2cc(Cl)cc(OCC(=O)Nc3ccc(C(N)=O)cc3Cl)c2)c1 | - | - | p24 | <20 µM |
| CC1([C@@H]2CC[C@]3(NC[C@@H](CO)N4CCS(=O)(=O)CC4)CC[C@]4(C)[C@H](CC[C@@H]5[C@@]6(C)CC[C@H](OC(=O)[C@H]7C[C@@H](C(=O)O)C7(C)C)C(C)(C)[C@@H]6CC[C@]54C)[C@@H]23)CC1 | NL4-3 | - | p24 / ELISA | <0.01 µM |
| CC1(C)Oc2ccc3ccc(=O)oc3c2[C@@H](OC(=O)C23CCC(C)(C(=O)O2)C3(C)C)[C@H]1OC(=O)C12CCC(C)(C(=O)O1)C2(C)C | NL4-3 | RT-G550K | p24 | 0.072 µM |
| C[C@H](F)[C@@H](CN[C@]12CC[C@@H](C3(C)CC3)[C@@H]1[C@H]1CC[C@@H]3[C@@]4(C)CC[C@H](OC(=O)[C@H]5C[C@@H](C(=O)O)C5(C)C)C(C)(C)[C@@H]4CC[C@@]3(C)[C@]1(C)CC2)N1CCS(=O)(=O)CC1 | NL4-3 | V7A | p24 / ELISA | >0.1 µM |
| COc1ccc(C2ON=C3c4cc(OC)c(OC)cc4CC32)cc1 | IIIB | - | MTT | >12.5 µM |
| CC(C)C1=C2C(CC1=O)[C@@H](C(=O)NCCN(CCN(C)C)Cc1ccc(Cl)cc1)C[C@@H]1[C@@H]2CCC2C3C(CC[C@]21C)C(C)(C)C(C1=CC[C@@H](C(=O)O)CC1)=C[C@H]3C | NL4-3 | - | MTS / propidium iodide | 2.33 µM |
| C=C(C)[C@@H]1CC[C@]2(NC[C@H]([C@@H](C)OC(=O)COCCOC)N3CCS(=O)(=O)CC3)CC[C@]3(C)[C@H](CC[C@@H]4[C@@]5(C)CC[C@H](OC(=O)[C@H]6C[C@@H](C(=O)O)C6(C)C)C(C)(C)[C@@H]5CC[C@]43C)[C@@H]12 | NL4-3 | V7A | p24 / ELISA | <0.05 µM |
| CCc1c(C(=O)c2ccccc2)n(Cc2ccncc2)c(=O)[nH]c1=O | - | - | cytopathic effect / MTT | 0.0606 µg/mL |
| Cc1ccc(-c2nnc(COc3ccc(Cl)c(Oc4cc(Cl)cc(C#N)c4)c3)o2)cc1 | - | - | p24 | <20 µM |
| CC(C)c1c(C(=O)c2cc(C(F)(F)F)cc(C(F)(F)F)c2)n(Cc2ccccn2)c(=O)[nH]c1=O | - | - | cytopathic effect / MTT | 1.8 µg/mL |
| CC(C)[C@H](CN[C@]12CC[C@@H](C3(C)CC3)[C@@H]1[C@H]1CC[C@@H]3[C@@]4(C)CC[C@H](OC(=O)[C@H]5C[C@@H](C(=O)O)C5(C)C)C(C)(C)[C@@H]4CC[C@@]3(C)[C@]1(C)CC2)N1CCS(=O)(=O)CC1 | NL4-3 | - | p24 / ELISA | >0.05 µM |
| CC(C)[C@H](NC(=O)OCc1ccccn1)C(=O)N[C@@H](Cc1ccccc1)[C@@H](O)C[C@H](Cc1ccccc1)NC(=O)OCc1cccnc1 | NL4-3 | PR-L10R L63P | p24 | <0.8 µM |
| Cc1cc(Cl)cc(C(=O)c2c(C(C)C)c(=O)[nH]c(=O)n2Cc2ccncc2)c1 | - | - | cytopathic effect / MTT | 0.0023 µg/mL |

For reference, 3 entries again:

CC(C)CN(C[C@@H](O)[C@H](Cc1ccccc1)NC(=O)OCc1cncs1)S(=O)(=O)c1ccc2nc(N(C)C(=O)CN(C)CCCN3CCCC3)sc2c1 ; strain or isolate: R13080 ; read by: cytopathic effect / MTT ; result: 3.16 µM
CC(C)c1c(C(=O)c2cc(C(F)(F)F)cc(C(F)(F)F)c2)n(Cc2ccccn2)c(=O)[nH]c1=O ; read by: cytopathic effect / MTT ; result: 1.8 µg/mL
CCc1c(C(=O)c2cc(F)cc(F)c2)n(Cc2cc(C)nc(C)c2)c(=O)[nH]c1=O ; read by: cytopathic effect / MTT ; result: 0.0151 µg/mL